{
  "source": "PubChem BioAssay AID485275",
  "about": "(NMMLSC, 2010)",
  "note": "The list shows a part of the results, in another mix than the full data. Activity calls are given as the source filed them.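 How the source made its calls: active means plate passing quality check with inhibition over a set limit, or well fluorescence over plate mean plus 4 SD; inactive means the rest.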",
  "data": [
    {"experiment": "inhibitors of Candida efflux pumps in yeast, primary screen, S. cerevisiae, Nile Red, multiplex (AID 485275);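 further: Nile Red retained in pooled yeast measured as flow cytometry median fluorescence; 0% = buffer negative control and 100% = Enniatin B positive control; higher means more Nile Red kept so more efflux inhibition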", "settings": "S. cerevisiae Candida pump triplex, at 10 µM, active compounds read high", "values": [
      {"smiles": "CN1CCC(Nc2cccc(F)c2)CC1", "inhibition": "inactive: -0.19%"},
      {"smiles": "O=C(NCC1(N2CCCCC2)CCCCC1)c1cncc(Br)c1", "inhibition": "inactive: 0.02%"},
      {"smiles": "CCCOc1ccc(C(=O)NCC2(N(C)C)CCCCC2)cc1OC", "inhibition": "inactive: -0.15%"},
      {"smiles": "CN(C)c1cccc(C(=O)NCC2(N3CCCCC3)CCCCC2)c1", "inhibition": "inactive: -0.11%"},
      {"smiles": "COc1ccc(CN(CCCl)CCCl)cc1Cl", "inhibition": "inactive: -0.03%"},
      {"smiles": "CC(C)c1ccc(NC2CCN(C(=O)OC(C)(C)C)CC2)cc1", "inhibition": "inactive: 0%"},
      {"smiles": "O=C(NCC1(N2CCOCC2)CCCCC1)c1cc(F)c(F)cc1Cl", "inhibition": "inactive: 0.15%"},
      {"smiles": "COc1cc(OC)c(C(=O)NCC2(N(C)C)CCCCC2)cc1OC", "inhibition": "inactive: 0.22%"},
      {"smiles": "O=C(NCC1(N2CCCCC2)CCCCC1)c1cccc(C(F)(F)F)c1", "inhibition": "inactive: 0.09%"},
      {"smiles": "COc1ccc(NC2CCN(C(=O)OC(C)(C)C)CC2)cc1", "inhibition": "inactive: -0.1%"},
      {"smiles": "CN1CCN(CCOC(=O)C(O)(c2ccccc2)c2ccccc2)CC1", "inhibition": "inactive: 0.48%"},
      {"smiles": "O=C(NCC1(N2CCOCC2)CCCCC1)c1cc(=O)[nH]c2ccccc12", "inhibition": "inactive: 0.18%"},
      {"smiles": "COc1cc(C(=O)NCC2(N3CCCCC3)CCCCC2)ccc1OC(F)F", "inhibition": "inactive: -0.14%"},
      {"smiles": "O=C(NCC1(N2CCCCC2)CCCCC1)c1ccc(OC(F)F)cc1", "inhibition": "inactive: 0.13%"},
      {"smiles": "O=C(NCC1(N2CCCCC2)CCCCC1)c1cccc([N+](=O)[O-])c1", "inhibition": "inactive: -0.09%"},
      {"smiles": "N#CC1(Nc2ccccc2)CCN(CCc2ccccc2)CC1", "inhibition": "inactive: -0.05%"},
      {"smiles": "CCN1CCC(Nc2ccc(Cl)cc2)CC1", "inhibition": "inactive: -0.1%"},
      {"smiles": "Cc1ccc(OCC(C)C)c(CN(CCCl)CCCl)c1", "inhibition": "inactive: 0.01%"},
      {"smiles": "CCOC(=O)N1CCC(Nc2cccc(C)c2)CC1", "inhibition": "inactive: -0.07%"},
      {"smiles": "COc1cc(C(=O)NCC2(N(C)C)CCCCC2)ccc1OC(F)F", "inhibition": "inactive: -0.11%"},
      {"smiles": "CCOc1ccc(C)cc1CN(CCCl)CCCl", "inhibition": "inactive: -0.09%"},
      {"smiles": "CCOC(=O)N1CCC(Nc2ccc(F)cc2)CC1", "inhibition": "inactive: 0%"},
      {"smiles": "COc1ccc(NC2CCN(CCc3ccccc3)CC2)c(OC)c1", "inhibition": "inactive: 0.08%"},
      {"smiles": "O=C(NCC1(N2CCCCC2)CCCCC1)c1ccc(F)cc1", "inhibition": "inactive: 0.04%"},
      {"smiles": "O=C(NCC1(N2CCOCC2)CCCCC1)c1cc2ccccc2o1", "inhibition": "inactive: -0.08%"},
      {"smiles": "Cc1cc(C)cc(N(C(=O)c2ccccc2)C2CCN(C(=O)OC(C)(C)C)CC2)c1", "inhibition": "inactive: 0.19%"},
      {"smiles": "O=C(NCC1(N2CCCCC2)CCCCC1)c1ccc(Cl)nc1", "inhibition": "inactive: 0.01%"},
      {"smiles": "CCOC(=O)N1CCC(Nc2ccc(OC)cc2)CC1", "inhibition": "inactive: 0.1%"},
      {"smiles": "COc1ccc(Cl)cc1C(=O)NCC1(N2CCOCC2)CCCCC1", "inhibition": "inactive: 0.04%"},
      {"smiles": "O=C(NCC1(N2CCCCC2)CCCCC1)c1ccc(Cl)s1", "inhibition": "inactive: -0.07%"},
      {"smiles": "N#CC1(Nc2ccccc2)CCN(Cc2ccccc2)CC1", "inhibition": "inactive: -0.11%"},
      {"smiles": "O=C(OC1CN2CCC1CC2)C1c2ccccc2Oc2ccccc21", "note": "(stereo unspecified)", "inhibition": "inactive: -0.09%"},
      {"smiles": "O=C(NCC1(N2CCCCC2)CCCCC1)c1cccs1", "inhibition": "inactive: -0.18%"},
      {"smiles": "O=C(NCC1(N2CCCCC2)CCCCC1)c1ccc(=O)[nH]c1", "inhibition": "inactive: -1.16%"},
      {"smiles": "COc1ccc(C(=O)NCC2(N3CCCCC3)CCCCC2)c(OC)c1OC", "inhibition": "inactive: -0.09%"},
      {"smiles": "CC(C)(C)OC(=O)N1CCC(N(C(=O)c2ccccc2)c2ccc(F)cc2)CC1", "inhibition": "inactive: -0.01%"},
      {"smiles": "COc1ccc(C(=O)NCC2(N3CCCCC3)CCCCC2)cc1", "inhibition": "inactive: 0.05%"},
      {"smiles": "CSc1ccccc1C(=O)NCC1(N2CCCCC2)CCCCC1", "inhibition": "inactive: -0.04%"},
      {"smiles": "CCC(CO)(C(=O)OC1CN2CCC1CC2)c1ccccc1", "note": "(stereo unspecified)", "inhibition": "inactive: -0.21%"},
      {"smiles": "COc1cccc(C(=O)N(c2cc(C)cc(C)c2)C2CCN(C(=O)OC(C)(C)C)CC2)c1", "inhibition": "inactive: 0.28%"},
      {"smiles": "COc1cc(OC)cc(C(=O)NCC2(N3CCOCC3)CCCCC2)c1", "inhibition": "inactive: 0.05%"},
      {"smiles": "CCCOc1ccc(C)cc1CN(CCCl)CCCl", "inhibition": "inactive: 0.09%"},
      {"smiles": "CN1CCC(Nc2ccc(Cl)cc2)CC1", "inhibition": "inactive: -0.19%"},
      {"smiles": "CN1CCC(Nc2ccc(F)c(Cl)c2)CC1", "inhibition": "inactive: 0.17%"},
      {"smiles": "CCOc1ncccc1C(=O)NCC1(N2CCOCC2)CCCCC1", "inhibition": "inactive: 0.1%"},
      {"smiles": "CCCOc1ccc(C(=O)NCC2(N(C)C)CCCCC2)cc1", "inhibition": "inactive: -0.31%"},
      {"smiles": "O=C(O)C1(Nc2ccccc2)CCN(Cc2ccccc2)CC1", "inhibition": "inactive: 0.06%"},
      {"smiles": "CC(C)(C)OC(=O)N1CCC(Nc2ccccc2)CC1", "inhibition": "inactive: -0.24%"},
      {"smiles": "CCN1CCC(Nc2cccc(F)c2)CC1", "inhibition": "inactive: 0%"},
      {"smiles": "CN(C)c1ccc(C(=O)NCC2(N3CCCCC3)CCCCC2)cc1", "inhibition": "inactive: 0.02%"},
      {"smiles": "O=C(NCC1(N2CCCCC2)CCCCC1)c1ccco1", "inhibition": "inactive: 0.22%"},
      {"smiles": "COc1cc(OC)cc(C(=O)NCC2(N3CCCCC3)CCCCC2)c1", "inhibition": "inactive: -0.3%"},
      {"smiles": "Fc1ccccc1NC1CCN(Cc2ccccc2)CC1", "inhibition": "inactive: 0.12%"},
      {"smiles": "Cc1ccc(C(=O)NCC2(N3CCCCC3)CCCCC2)o1", "inhibition": "inactive: 0.04%"},
      {"smiles": "CCCN1CCC(Nc2cc(OC)cc(OC)c2)CC1", "inhibition": "inactive: -0.31%"},
      {"smiles": "c1ccc(CN2CCC(Nc3ccccc3)CC2)cc1", "inhibition": "inactive: 0.17%"},
      {"smiles": "CN(C)C1(CNC(=O)c2cccc(C#N)c2)CCCCC1", "inhibition": "inactive: 0.23%"},
      {"smiles": "CC(C)(C)OC(=O)N1CCC(N(C(=O)c2ccccc2)c2ccc(Cl)cc2)CC1", "inhibition": "inactive: -0.44%"},
      {"smiles": "N#Cc1ccc(C(=O)NCC2(N3CCCCC3)CCCCC2)cc1", "inhibition": "inactive: 0.03%"},
      {"smiles": "N/C(=N\\O)c1c(N)no[n+]1[O-]", "inhibition": "inactive: 0.17%"},
      {"smiles": "CCOC(=O)N1CCC(Nc2ccc(C)cc2)CC1", "inhibition": "inactive: -0.04%"},
      {"smiles": "CCc1cc(C(=O)NCC2(N3CCCCC3)CCCCC2)sc1C", "inhibition": "inactive: -0.1%"},
      {"smiles": "O=C(OC1CN2CCC1CC2)C1c2ccccc2C=Cc2ccccc21", "note": "(stereo unspecified)", "inhibition": "inactive: -0.5%"},
      {"smiles": "O=C(NCC1(N2CCOCC2)CCCCC1)c1cc(Br)ccc1Cl", "inhibition": "inactive: 0.09%"},
      {"smiles": "COc1cc(C(=O)NCC2(N3CCOCC3)CCCCC2)cc(OC)c1C", "inhibition": "inactive: 0.1%"},
      {"smiles": "COc1ccc(C(=O)NCC2(N3CCOCC3)CCCCC2)cc1OC", "inhibition": "inactive: 0.06%"}
    ]}
  ]
}
